The experiment has as its target Polymerase acidic protein (Influenza A virus (A/Puerto Rico/8/1934(H1N1)), UniProt P03433). Kind of experiment: Inhibition of cap 1 ALMV primed Influenza transcriptase.

This passage reports IC50 results from ChEMBL document CHEMBL2040549, “Inhibition of cap (m7GpppXm)-dependent endonuclease of influenza virus by 4-substituted 2,4-dioxobutanoic acid compounds” (Antimicrob Agents Chemother, 1994).

By IC50 is commonly meant the midpoint of a concentration-inhibition curve. Lower therefore signals greater potency. As for `O=C(O)/C=C/C(=O)c1ccccc1`, the IC50 was greater than 500 µM.
